Source: patent publication US10513559B2, “Amatoxin-armed therapeutic cell surface binding components designed for tumour therapy” (Deutsches Krebsforschungszentrum, priority 2009, dated 2019)

System: SKOV-3 ovarial carcinoma cells
Assay: in vivo SKOV-3 xenograft tumor model
Design: species or system SCID mice
Conditions: single i.v. dose 30 or 150 μg/kg on day 10; observation 87 days
Text: A mouse tumor xenograft model, wherein 2.5×10^& SKOV-3 ovarial carcinoma cells are implanted sub-cutaneously (s.c.) into SCID mice and allowed to grow for 10 days. […] A clear concentration dependent reduction of tumor growth was observed.

## α-Amanitin-glutarate-Herceptin [Conjugate (15)]
  tumor remission: full tumor remission
